The target of assay [1] is T1, Human CD4-Fc (human, UniProt P01730 26-390).
T1 construct: not shown: Fc
As to the kind of experiment: BLI; human CD4-Fc captured; binder-mouse Fc homodimer at 500 nM.

Assay [2] addresses T1, Human CD4-Fc. As to the kind of experiment: BLI; human CD4-Fc captured; binder-mouse Fc homodimer at 250 nM.

B1: Binder 256 expressed as homodimer with mouse Fc (Fc fusion)
chain: EVQLVESGGGLVQSGGSLRLSCAASGFTFSGYWMYWVRQAPGKGLEWVSAISPGGGSTYYPDSVKGRFTISRDNAKNTLYLQMNSLEPEDTALYYCASSLTATHTYEYDYWGQGTQVTVSS
notes: also called VHH4; not shown: mouse Fc
In the case of B1, in assay [1], the Kd came out at 5.14 nM, the koff was found to be 0.00046 s⁻¹ and the kon was 89500 M⁻¹ s⁻¹.

B2: Binder 387 expressed as homodimer with mouse Fc (Fc fusion)
chain: DLGKKLLEAARAGQDDEVRILMANGADVNAMDHFGFTPLHLAAKVGHLEIVEVLLKYGADVNADDMDGETPLHLAAAIGHLEIVEVLLKNGADVNAHDTWGFTPLHLAASYGHLEIVEVLRKYGADVNAQDKFGETTFDISIDNGNEDLAEILQKLN
notes: not shown: mouse Fc
On to B2, for which, in assay [2], the koff worked out at 1.75e-05 s⁻¹ and the kon was 24700 M⁻¹ s⁻¹.

The record behind these values is US20250281536A1 (published 2025).
